A mixed list of measured activities; the numbers were collected in NIAID ChemDB.

All rows: enzyme or target tests; agent: HIV-1; target: Protease

An empty or dashed field is not shown. ICn is the concentration giving n% inhibition. a–b is a range or a potency band. Lines come from different laboratories, so protocols vary.

structure,method,endpoint,strain or isolate,setting,value
CC(C)c1ccccc1SC1=C(O)CC(CCCC(=O)N2CCN(C(=O)OC(C)(C)C)CC2)(c2ccccc2)OC1=O,HPLC,IC50,,pH 4.7,0.124 µM
O=S1[C@H](Cc2ccccc2)[C@H](OCc2ccccc2)[C@H](O)[C@@H](O)[C@@H](OCc2ccccc2)[C@H]1Cc1ccccc1,fluorescence,IC50,,,<2 µM
O=C(N[C@H]1c2ccccc2C[C@H]1O)[C@H](Cc1ccccc1)C[C@H](O)CN1C(=O)C2(CCCCC2)C[C@@H]1Cc1ccccc1,,Ki,,,0.0008 µM
[O]=[V](=[O])[O-],fluorescence,IC50,,,1–20 µM
CC(C)(C)OC(=O)N[C@@H]1C[C@@H]2O[C@@H]2CN(Cc2ccccc2)C1=O,fluorescence,IC50,,,10.5 µM
O=S1C[C@H](OCc2ccccc2)[C@H](O)[C@@H](O)[C@@H](OCc2ccccc2)[C@H]1Cc1ccccc1,fluorescence,IC50,,,2–10 µM
CC(C)c1ccccc1SC1=C(O)CC(CCC(=O)N2CCOCC2)(c2ccccc2)OC1=O,HPLC,IC50,,pH 4.7,2.44 µM
CC(C)(C)NC(=O)[C@@H]1CCCN1C(=O)[C@@H](O)[C@H](Cc1ccccc1)NC(=O)[C@H](CC(N)=O)NC(=O)OCc1ccccc1,HPLC,IC50,,,0.049 µM
O=S1(=O)[C@H](Cc2ccccc2)[C@H](OCc2ccccc2)[C@H](O)[C@@H](O)[C@@H](OCc2ccccc2)[C@H]1Cc1ccccc1,fluorescence,IC50,,,<2 µM
CC(C)[C@H](NC(=O)CCc1cccnc1)C(=O)N[C@@H](Cc1ccccc1)C(O)[C@H](Cc1ccccc1)NC(=O)[C@@H](NC(=O)CCc1cccnc1)C(C)C,fluorescence,IC50,,,<0.1 µM
CC(C)(C)NC(=O)[C@@H]1CCCN1C(=O)C(=O)[C@H](Cc1ccccc1)NC(=O)[C@H](CC(N)=O)NC(=O)OCc1ccccc1,HPLC,IC50,,,0.064 µM
Cc1nc(CO[C@@H]2[C@H](O)[C@@H](O)[C@@H](OCc3csc(C)n3)[C@@H](Cc3ccccc3)S(=O)(=O)[C@@H]2Cc2ccccc2)cs1,fluorescence,IC50,,,<2 µM
CC(C)CC(NC(=O)[C@@H](NC(=O)OCc1ccccc1)C(C)C)C(O)C(F)(F)C(NC(=O)[C@@H](NC(=O)OCc1ccccc1)C(C)C)C(C)C,fluorescence,IC50,,,>0.005 µM
CC(C)c1ccccc1SC1=C(O)CC(CCCC(=O)NCCc2ccccc2)(c2ccccc2)OC1=O,HPLC,IC50,,pH 4.7,0.146 µM
O=S1(=O)[C@H](Cc2ccccc2)[C@H](Oc2ccccn2)[C@H](O)[C@@H](O)[C@@H](Oc2ccccn2)[C@H]1Cc1ccccc1,fluorescence,IC50,,,<2 µM
O=C1N[C@H](Cc2csc3ccccc23)C(=O)N1CC(CCN1CCC(c2ccccc2)CC1)c1cccc(Cl)c1,,Ki,,,0.16 µM
Cc1cccc(C)c1OCC(=O)N[C@@H](Cc1ccccc1)[C@H](O)C(=O)N1CSC(C)(C)[C@H]1C(=O)NN(C)c1ccccc1,HPLC,IC50,,,>0.05 µM
CC(C)(C)OC(=O)N[C@@H](Cc1ccccc1)[C@H](O)[C@H](O)[C@H](Cc1ccccc1)NC(=O)OC(C)(C)C,fluorescence,Ki,,,0.022 µM
O=[N+]([O-])c1ccc(CO[C@@H]2[C@H](O)[C@@H](O)[C@@H](OCc3ccc([N+](=O)[O-])cc3)[C@@H](Cc3ccccc3)S(=O)(=O)[C@@H]2Cc2ccccc2)cc1,fluorescence,IC50,,,<2 µM
CC(C)[C@H](NC(=O)OCc1ccccc1)C(=O)N[C@@H](Cc1ccccc1)[C@H](O)[C@H](Cc1ccccc1)NC(=O)[C@@H](NC(=O)c1cccnc1)C(C)C,fluorescence,IC50,,,<0.0025 µM
O=C1N[C@H](Cc2c[nH]c3ccccc23)C(=O)N1CC(CCN1CCC(c2ccccc2)CC1)c1cccc(Cl)c1,,Ki,,,0.027 µM
CC(C)(C)OC(=O)N[C@H]1C(=O)N(Cc2ccccc2)C[C@H]2O[C@H]2[C@@H]1c1ccccc1,fluorescence,IC50,,,19.3 µM
Cc1ccc(CO[C@@H]2[C@H](O)[C@@H](O)[C@@H](OCc3ccc(C)cn3)[C@@H](Cc3ccccc3)S(=O)(=O)[C@@H]2Cc2ccccc2)nc1,fluorescence,IC50,,,2–10 µM
CC(C)(C)OC(=O)N[C@@H](Cc1ccccc1)[C@@H](O)C[C@@H](Cc1ccc(OCCN2CCOCC2)cc1)C(=O)N[C@H]1c2ccccc2C[C@H]1O,fluorescence,Ki,,,0.000051 µM
CC(C)[C@H](NC(=O)OCc1ccccc1)C(=O)N[C@@H](Cc1ccccc1)[C@H](O)[C@H](Cc1ccccc1)NC(=O)[C@@H](NC(=O)OCc1cccnc1)C(C)C,fluorescence,IC50,,,<0.005 µM
O=C1N(Cc2ccc(CO)cc2)CC[C@@H](O)[C@@H](Cc2ccccc2)N1Cc1ccc(CO)cc1,,Ki,,,0.23 µM
CC(C)c1ccccc1SC1=C(O)CC(CCCCC(=O)N2CCOCC2)(c2ccccc2)OC1=O,HPLC,IC50,,pH 4.7,0.195 µM
Cc1cccc(C)c1OCC(=O)N[C@@H](Cc1ccccc1)[C@H](O)C(=O)N1CSC(C)(C)[C@H]1C(=O)NCc1ccncc1,HPLC,IC50,,,<0.05 µM
CC(C)(C)OC(=O)N[C@H]1C(=O)N(Cc2ccccc2)C[C@@H](O)[C@@H](O)[C@@H]1c1ccccc1,fluorescence,IC50,,,75 µM
Nc1cccc(CO[C@@H]2[C@H](O)[C@@H](O)[C@@H](OCc3cccc(N)c3)[C@@H](Cc3ccccc3)S(=O)(=O)[C@@H]2Cc2ccccc2)c1,fluorescence,IC50,,,<2 µM
Cc1cccc(C)c1OCC(=O)N[C@@H](Cc1ccccc1)[C@H](O)C(=O)N1CSC(C)(C)[C@H]1C(=O)NCc1ccc(C(N)=O)cc1,HPLC,IC50,,,>0.05 µM
CCNC(=O)[C@H](NC(=O)Cc1ccccc1)[C@@H]1N[C@@H](C(=O)NCCNC(=O)[C@@H]2N[C@@H]([C@@H](NC(=O)Cc3ccccc3)C(=O)NCC)SC2(C)C)C(C)(C)S1,radiometric,IC50,RF,,1.3 µM
CC(C)c1ccccc1SC1=C(O)CC(CCC(=O)N2CCN(C(=O)OC(C)(C)C)CC2)(c2ccccc2)OC1=O,HPLC,IC50,,pH 4.7,1.27 µM
O=C1N(Cc2ccc3ccccc3c2)CC[C@@H](O)[C@@H](Cc2ccccc2)N1Cc1ccc2ccccc2c1,,Ki,,,0.25 µM
CC(C)(C)NC(=O)[C@@H]1CN(Cc2cnc3occc3c2)CCN1C[C@@H](O)C[C@@H](Cc1ccccc1)C(=O)N[C@H]1c2ccccc2C[C@H]1O,HPLC,IC50,,,0.00027 µM
CCNC(=O)[C@@H](NC(=O)Cc1ccccc1)[C@H]1N[C@@H](C(=O)NCCNC(=O)[C@@H]2N[C@H]([C@H](NC(=O)Cc3ccccc3)C(=O)NCC)SC2(C)C)C(C)(C)S1,radiometric,IC50,RF,,1.3 µM
Nc1ccc(CO[C@@H]2[C@H](O)[C@@H](O)[C@@H](OCc3ccc(N)c(C(F)(F)F)c3)[C@@H](Cc3ccccc3)S(=O)(=O)[C@@H]2Cc2ccccc2)cc1C(F)(F)F,fluorescence,IC50,,,<2 µM
CC(C)[C@H](NC(=O)OCc1ccncc1)C(=O)N[C@@H](Cc1ccccc1)[C@H](O)[C@@H](O)[C@H](Cc1ccccc1)NC(=O)[C@@H](NC(=O)OCc1ccncc1)C(C)C,fluorescence,IC50,,,>0.002 µM
COc1ccccc1CNC(=O)[C@H]1N(C(=O)[C@@H](O)[C@H](Cc2ccccc2)NC(=O)COc2c(C)cccc2C)CSC1(C)C,HPLC,IC50,,,>0.05 µM
CC(C)[C@H](NC(=O)OCc1ccccc1)C(=O)N[C@@H](Cc1ccccc1)[C@H](O)[C@H](O)[C@H](Cc1ccccc1)NC(=O)[C@@H](NC(=O)OCc1ccccc1)C(C)C,fluorescence,IC50,,,<0.001 µM
O=C1N(Cc2ccccc2)CC[C@@H](O)[C@@H](Cc2ccccc2)N1Cc1ccccc1,,Ki,,,1.8 µM

For reference, 2 entries again:

structure | method | endpoint | strain or isolate | setting | value
CC(C)(C)OC(=O)N[C@@H](Cc1ccccc1)[C@H](O)[C@H](O)[C@H](Cc1ccccc1)NC(=O)OC(C)(C)C | fluorescence | Ki |  |  | 0.022 µM
O=C1N(Cc2ccccc2)CC[C@@H](O)[C@@H](Cc2ccccc2)N1Cc1ccccc1 |  | Ki |  |  | 1.8 µM